We go through one substance from patent US20090196872A1.

The assay deals with M2 protein expressed on A/PR/8/34 infected MDCK cells (influenza A virus A/PR/8/34) (UniProt P06821). Description: cell-based or functional assay.

Turning to “isotype matched human monoclonal anti-HSA IgG1 antibody”, the ADCC: lysis of A/PR/8/34 infected MDCK cells, antibody 5 ug/mL, […] cells came to 25%.
